Anti-infective test results gathered from many reports (values: NIAID ChemDB through PubChem).

All rows: whole-cell or culture tests; species: HIV-1; method: RT activity; endpoint: EC50

a–b is a range or a potency band.

Cc1cn([C@H]2C[C@H](N=[N+]=[N-])[C@@H](CO)O2)c(=O)[nH]c1=O ; cell line: PBMC ; strain or isolate: BI-RG587-resistant ; value: 0.004 µM
Nc1ccn([C@@H]2CS[C@H](CO)O2)c(=O)n1 ; cell line: PBMC ; changes: RT-M41L E44D D67N T69D Y118I M184V L210W T215Y ; strain or isolate: 4755-5 NRTI resistant recombinant ; value: >10 µM
Nc1nc(=O)n([C@@H]2CC[C@H](CO)O2)cc1F ; cell line: PBMC ; strain or isolate: LAI ; value: 0.0002 µM
Cc1cn([C@H]2C=C[C@@H](COP(=O)(SCCOC(=O)C(C)(C)C)SCCOC(=O)C(C)(C)C)O2)c(=O)[nH]c1=O ; cell line: CEM + CEM TK- ; strain or isolate: LAI ; value: 0.0044 µM
Nc1nc(=O)n([C@@H]2C[C@H](O)[C@@H](CO)O2)cc1-c1ccc(-c2ccccc2)s1 ; cell line: H9 ; strain or isolate: IIIB ; value: >10 µg/mL
[N-]=[N+]=N[C@@H]1C[C@@H](n2cnc3c(N)nc(Cl)nc32)O[C@H]1CO ; cell line: CEM + CEM-SS ; value: >10 µM
CC(C)=CCN1Cc2cccc3[nH]c(=S)n(c23)C[C@@H]1C ; cell line: MT-2 ; changes: RT-L92I ; strain or isolate: PD165BC(RT-L92I) ; value: 0.079 µM
Nc1nc(=O)n([C@@H]2CS[C@H](CO)O2)cc1F ; cell line: PBMC ; strain or isolate: IIIB ; value: 0.01 µM
Nc1ccn([C@@H]2CO[C@H](CO)S2)c(=O)n1 ; cell line: MT-4 ; strain or isolate: HXB2D ; value: 3 µM
CC(C)c1nc(CN(C)C(=O)N[C@H](C(=O)N[C@@H](Cc2ccccc2)C[C@H](O)[C@H](Cc2ccccc2)NC(=O)OCc2cncs2)C(C)C)cs1 ; cell line: MT-2 ; strain or isolate: RF ; value: 0.0698 µM
CCCc1cc(=O)oc2c3c(c4c(c12)OC(C)(C)C=C4)O[C@H](C)[C@@H](C)[C@@H]3O ; cell line: PBMC ; strain or isolate: CLADE D ; value: 0.06 µM
CC(C)(C)NC(=O)[C@@H]1CN(Cc2cccnc2)CCN1C[C@@H](O)C[C@@H](Cc1ccccc1)C(=O)N[C@H]1c2ccccc2C[C@H]1O ; cell line: PBMC ; changes: RT-T69K K70G V75I F77L F116Y Q151M M184V ; strain or isolate: 56252-1 NRTI resistant recombinant ; value: 0.0037 µM
CCc1nc2sccn2c1C(=O)c1ccco1 ; cell line: CEM + CEM-SS ; strain or isolate: LAI ; value: 3 µM
CCCc1cc(=O)oc2c3c(c4c(c12)OC(C)(C)C=C4)O[C@@H](C)[C@H](C)[C@@H]3O ; cell line: U-937 ; strain or isolate: IIIB ; value: 0.3 µM
Nc1ncnc2c1ncn2[C@H]1CC[C@@H](CO)O1 ; cell line: CEM + CEM TK- ; strain or isolate: LAI ; value: 0.49 µM
Nc1nc(=O)n([C@H]2CO[C@@H](CO)S2)cc1F ; cell line: CBMC ; strain or isolate: 1075 (AZT-resistant) ; value: 0.5 µM
Cc1cn([C@H]2C[C@H](N=[N+]=[N-])[C@@H](CO)O2)c(=O)[nH]c1=O ; cell line: MT-2 ; changes: RT-K103N Y181C ; strain or isolate: A17 ; value: 0.03 µM
CC(C)Nc1cccnc1N1CCN(C(=O)c2cc3cc(NS(C)(=O)=O)ccc3[nH]2)CC1 ; cell line: PBMC ; strain or isolate: Subtype B isolate ; value: 0.02 µM
COC(=O)N[C@H](C(=O)N[C@@H](Cc1ccccc1)[C@@H](O)CN(Cc1ccc(-c2ccccn2)cc1)NC(=O)[C@@H](NC(=O)OC)C(C)(C)C)C(C)(C)C ; cell line: CEM + CEM-SS ; strain or isolate: RF ; value: 0.00485 µM
O=C1CCN(CCOc2ccc(Cl)cc2C(=O)c2cc(Cl)cc(Cl)c2)C(=O)N1 ; conditions: pseudotyped ; changes: K103N ; value: 3.1 µM
Cc1cn([C@H]2C[C@H](N=[N+]=[N-])[C@@H](CO)O2)c(=O)[nH]c1=O ; cell line: PBMC ; strain or isolate: IIIB ; value: 0.001–0.002 µM
CC(C)(C)C(=O)SCCOP(=O)(OCCSC(=O)C(C)(C)C)OC[C@@H]1CC[C@H](n2cnc3c(N)ncnc32)O1 ; cell line: CEM + CEM TK- ; strain or isolate: LAI ; value: 0.0001 µM
Nc1nc2c(ncn2[C@@H]2O[C@H](CO)[C@@H](O)[C@H]2O)c(=O)o1 ; cell line: U-937/HIV-1(IIIB) + U-937 ; conditions: chronic infection ; strain or isolate: IIIB ; value: 27 µg/mL
CCCCCCCCCCCCCCCCOP(=O)(OC[C@H]1OC(O)[C@H](O)[C@@H](O)[C@@H]1O)OC[C@H]1O[C@@H](n2cc(C)c(=O)[nH]c2=O)C[C@@H]1N=[N+]=[N-] ; cell line: CEM ; conditions: 7 d ; strain or isolate: LAV-Bru ; value: <0.2 µM
Nc1nc(Cl)nc2c1ncn2[C@@H]1CC[C@H](CO)O1 ; cell line: CEM + CEM-SS ; value: >10 µM
C=C(C)[C@@H]1CC[C@]2(C(=O)NCCCCCCCC(=O)N[C@@H](CC(C)C)[C@H](O)CC(=O)O)CC[C@]3(C)[C@H](CC[C@@H]4[C@@]5(C)CC[C@H](O)C(C)(C)[C@@H]5CC[C@]43C)[C@@H]12 ; cell line: CEM ; strain or isolate: NL4-3 ; value: <0.22 µM
CCc1nc2ccccn2c1C(=O)c1ccccc1 ; cell line: MT-4 ; strain or isolate: IIIB ; value: 77 µM
S=C(NCCC1=CCCCC1)Nc1ccc(Br)cn1 ; cell line: PBMC ; strain or isolate: IIIB ; value: 0.003 µM
Cc1ccnc2c1NC(=O)c1cccnc1N2C1CC1 ; cell line: MT-2 ; changes: RT-S156A ; strain or isolate: HX(RT-S156A) ; value: 0.04 µM
Cc1cc(C)cc(C(=O)c2cc(Cl)ccc2OCCN2CCC(=O)NC2=O)c1 ; conditions: pseudotyped ; changes: K103N + Y181C ; value: >10 µM
CC(C)(C)NC(=O)[C@@H]1C[C@@H]2CCCC[C@@H]2CN1C[C@@H](O)[C@H](Cc1ccccc1)NC(=O)[C@H](CC(N)=O)NC(=O)c1ccc2ccccc2n1 ; cell line: MT-2 ; strain or isolate: BRU ; value: 0.0121 µM
S=C(NCCC1=CCCCC1)Nc1ccc(Cl)cn1 ; cell line: PBMC ; strain or isolate: IIIB ; value: 0.003 µM
CCc1nc2sccn2c1C(=O)c1ccccc1 ; cell line: MT-4 ; strain or isolate: IIIB ; value: 37 µM
Nc1nc2c(ncn2[C@@H]2O[C@H](COP(=O)(O)O)[C@@H](O)[C@H]2O)c(=O)o1 ; cell line: H9 ; strain or isolate: IIIB ; value: >500 µg/mL
COC(=O)[C@H](C)NP(=O)(OC[C@@H]1C=C[C@H](n2cc(C)c(=O)[nH]c2=O)O1)Oc1ccc(Br)cc1 ; cell line: PBMC ; changes: RT-D67N T69N K70R M184V T215F K219Q ; strain or isolate: 7295-1 NRTI resistant recombinant ; value: 0.0002 µM
Nc1nc2c(ncn2[C@H]2CC[C@@H](CO)C2)c(=O)o1 ; cell line: U-937/HIV-1(IIIB) + U-937 ; conditions: chronic infection ; strain or isolate: IIIB ; value: 36 µg/mL
Nc1nc(Cl)nc2c1ncn2[C@@H]1C[C@@H](F)[C@H](CO)O1 ; cell line: CEM + CEM-SS ; value: >10 µM
CCc1nc2ncccn2c1C(=O)c1ccccc1 ; cell line: MT-4 ; strain or isolate: IIIB ; value: >100 µM
Cc1ccnc2c1NC(=O)c1cccnc1N2C1CC1 ; cell line: PBMC ; strain or isolate: WEJO ; value: 0.06 µM
Cc1cn([C@H]2C[C@H](N=[N+]=[N-])[C@@H](CO)O2)c(=O)[nH]c1=O ; cell line: PBMC ; changes: RT-T69K K70G V75I F77L F116Y Q151M M184V ; strain or isolate: 56252-1 NRTI resistant recombinant ; value: 0.187 µM
Cc1cn([C@H]2C[C@H](N=[N+]=[N-])[C@@H](COP(=O)(O)OC[C@H]3OC(O)[C@@H](O)[C@@H](O)[C@@H]3O)O2)c(=O)[nH]c1=O ; cell line: U-937 ; conditions: 14 d ; strain or isolate: LAV-Bru ; value: >25 µM
Cc1ccc(C(=O)OC[C@H]2O[C@@H](n3cc(-c4cccs4)c(N)nc3=O)C[C@@H]2O)cc1 ; cell line: H9 ; strain or isolate: IIIB ; value: >10 µg/mL
CC(C)c1nc(CN(C)C(=O)N[C@H](C(=O)N[C@@H](Cc2ccccc2)C[C@H](O)[C@H](Cc2ccccc2)NC(=O)OCc2cncs2)C(C)C)cs1 ; cell line: MT-2 ; strain or isolate: MN ; value: 0.005 µM
O=c1[nH]cnc2c1ncn2[C@H]1CC[C@@H](CO)O1 ; cell line: MT-4 ; strain or isolate: LAI ; value: 11 µM
Nc1nc2c(ncn2[C@H]2C[C@H](O)[C@@H](CO)O2)c(=O)o1 ; cell line: CEM ; strain or isolate: IIIB ; value: 4.8 µg/mL
COCCNC(=O)[C@@H](NC(=O)[C@H](Cc1ccc(OC)c(OC)c1OC)C[C@H](O)[C@H](Cc1ccccc1)NC(=O)OC(C)(C)C)C(C)C ; cell line: PBL ; strain or isolate: LAI ; value: 0.0177 µM
Cc1cn([C@H]2C[C@H](N=[N+]=[N-])[C@@H](CO)O2)c(=O)[nH]c1=O ; cell line: U-937 ; strain or isolate: IIIB ; value: 0.003 µM
Nc1ccn([C@H]2CC[C@@H](CO)O2)c(=O)n1 ; cell line: MT-4 ; changes: RT-M184V ; strain or isolate: HXB2-D184 (RT-M184V) ; value: 2.4 µM
Cc1cn([C@H]2C[C@H](N=[N+]=[N-])[C@@H](CO)O2)c(=O)[nH]c1=O ; cell line: CEM ; conditions: 15 d ; strain or isolate: LAV-Bru ; value: <0.2 µM
Cc1cn([C@H]2C[C@H](N=[N+]=[N-])[C@@H](CO)O2)c(=O)[nH]c1=O ; cell line: PBMC ; strain or isolate: Subtype B isolate ; value: <0.03 µM
Nc1nc(=O)n([C@@H]2C[C@H](O)[C@@H](CO)O2)cc1-c1cccnc1 ; cell line: H9 ; strain or isolate: IIIB ; value: >10 µg/mL
CC(=O)SCCOP(=O)(OCCSC(C)=O)OC[C@@H]1CC[C@H](n2cnc3c(=O)[nH]cnc32)O1 ; cell line: CEM + CEM TK- ; strain or isolate: LAI ; value: 0.3 µM
Nc1ccn([C@H]2CO[C@@H](CO)S2)c(=O)n1 ; cell line: MT-4 ; changes: RT-D67G ; strain or isolate: HxB2D(RT-D67G) ; value: 7.5 µM
CC(C)(C)C(=O)OCCSP(=O)(OC[C@@H]1CC[C@H](n2cnc3c(N)ncnc32)O1)SCCOC(=O)C(C)(C)C ; cell line: CEM + CEM-SS ; strain or isolate: LAI ; value: 0.0077 µM
Nc1nc(=O)n([C@@H]2CO[C@H](CO)S2)cc1F ; cell line: MT-4 ; strain or isolate: HXB2D ; value: 2.2 µM
Nc1nc(=O)n([C@H]2C[C@H](O)[C@@H](CO)O2)cc1-c1ccc[se]1 ; cell line: H9 ; strain or isolate: IIIB ; value: >10 µg/mL

5 of the rows above, restated:

{"smiles": "Nc1nc(Cl)nc2c1ncn2[C@@H]1CC[C@H](CO)O1", "cell line": "CEM + CEM-SS", "value": ">10 µM"}
{"smiles": "Nc1ccn([C@@H]2CO[C@H](CO)S2)c(=O)n1", "cell line": "MT-4", "strain or isolate": "HXB2D", "value": "3 µM"}
{"smiles": "Cc1cn([C@H]2C[C@H](N=[N+]=[N-])[C@@H](CO)O2)c(=O)[nH]c1=O", "cell line": "U-937", "strain or isolate": "IIIB", "value": "0.003 µM"}
{"smiles": "S=C(NCCC1=CCCCC1)Nc1ccc(Cl)cn1", "cell line": "PBMC", "strain or isolate": "IIIB", "value": "0.003 µM"}
{"smiles": "Nc1ccn([C@H]2CC[C@@H](CO)O2)c(=O)n1", "cell line": "MT-4", "changes": "RT-M184V", "strain or isolate": "HXB2-D184 (RT-M184V)", "value": "2.4 µM"}

Rows are shuffled and stem from different studies. ECn is the concentration giving n% inhibition of infection, replication or growth.